Assay results published in PMC9486808 (ACS Chemical Biology, 2022).

Experiment: general procedure: Fmoc solid-phase peptide synthesis; Rapp Polymere tentagel S RAM resin; HOBt/HBTU, DIPEA
Details: whole synthesis, 215 nm, scale of the general procedure 5 μmol

| Substance | crude HPLC purity [%] | final HPLC purity [%] |
| --- | --- | --- |
| Cyclo(Ac-yVKIVWFEGTLNTTWFC)G-NH2 | 29 | – |
| PEPTIDE1{[CH2CO].Y.W.H.K.N.K.Y.V.L.T.Y.S.C.L.F.A.A.G.[am]}$PEPTIDE1,PEPTIDE1,1:R3-14:R3$$$V2.0 | – | >95 |
| Cyclo(Ac-YVQIFDRYGIYSGKWSC)G-NH2 | 31 | – |
| PEPTIDE1{[CH2CO].[dY].V.L.F.R.W.D.H.G.T.L.A.T.H.W.V.C.G.[am]}$PEPTIDE1,PEPTIDE1,1:R3-18:R3$$$V2.0 | 61 | >95 |
| Cyclo(Ac-YITRFTPWPKLYPVWDC)G-NH2 (cyclized, N-acetyl, extra C-terminal Gly amide) | – | >95 |
| Cyclo(Ac-YYSWFEATGRFRAIFSC)G-NH2 | 34 | – |
| Cyclo(Ac-YSYFDVNTIFWFSPFC)CG-NH2 | 8 | – |
| Cyclo(Ac-yAFWIRWTNHYRSGFTC)G-NH2 | 60 | >95 |
| Cyclo(Ac-yLIWPSFNQNAKIIFPC)G-NH2 | 55 | – |
| Cyclo(Ac-ySYFIWANFQTEPYFVC)G-NH2 | 26 | >95 |
| Cyclo(Ac-yFLC)TKWNYGRWYLFYCG-NH2 | 20 | – |
| Cyclo(Ac-yRQWFYLGKYYC)TWSCCG-NH2 | 28 | – |
| Cyclo(Ac-yTYYVLLQRWPPVWAPC)G-NH2 | 66 | >90 |
| Cyclo(Ac-yIRLFWINGNLVSEWNC)G-NH2 | 30 | >95 |
| Cyclo(Ac-yFVNWYWHGEKLFYRYC)G-NH2 | 26 | – |
| Cyclo(Ac-yVIAIRPFSQLCWRWVC)G-NH2 | 19 | – |
| Cyclo(Ac-YRFLWSSFSSQPSWVHC)G-NH2 | 72 | – |
| Cyclo(Ac-YSNNRNWLPHDWQVLYC)G-NH2 | 95 | – |
| PEPTIDE1{[CH2CO].[dY].L.K.I.Y.W.S.K.I.H.G.L.V.S.E.W.C.G.[am]}$PEPTIDE1,PEPTIDE1,1:R3-18:R3$$$V2.0 | 29 | >95 |
| PEPTIDE1{[CH2CO].Y.R.W.V.W.T.S.F.F.S.E.P.Y.F.V.V.C.G.[am]}$PEPTIDE1,PEPTIDE1,1:R3-18:R3$$$V2.0 | – | >95 |
| Cyclo(Ac-yRVFNISWDGEYRSWWC)G-NH2 | 54 | – |
| Cyclo(Ac-yIVLAWKGHYLESRWTC)G-NH2 | 29 | – |
| Cyclo(Ac-YYKALWINATFYQSLVC)G-NH2 | 9 | – |

Strings that start with PEPTIDE1 are HELM notation: dots part the residues, brackets hold end groups and non-standard residues.
